Measurements from ChEMBL document CHEMBL1687805, “Colistin resistance in Acinetobacter baumannii is mediated by complete loss of lipopolysaccharide production” (2010).

Experiments:
Acinetobacter baumannii [1] = assay: Antibacterial activity against colistin-resistant Acinetobacter baumannii ATCC 19606R harboring empty plasmid pWH1266 by broth microdilution method; assay type: functional
Procedure, shortened: (§1)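 Broth microdilution MIC in cation-adjusted Mueller-Hinton broth following the CLSI protocol, read in μg/ml. Strains were kept on Mueller-Hinton agar and cultured at 37°C. 19606R was selected directly on 10 μg/ml colistin and maintained with it. The pWH1266 or pAL840 transformants of 19606R were introduced by electroporation and selected on 100 μg/ml ampicillin.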

Acinetobacter baumannii [2] = assay: Antibacterial activity against colistin-resistant Acinetobacter baumannii ATCC 19606R harboring pAL840 plasmid encoding intact lpxA gene by broth microdilution method; assay type: functional; procedure, shortened: as §1
Acinetobacter baumannii [3] = assay: Antibacterial activity against colistin-resistant Acinetobacter baumannii ATCC 19606R exhibiting complete loss of lipopolysaccharide production by broth microdilution method; assay type: functional; procedure, shortened: as §1
Acinetobacter baumannii [4] = settings: isolate FADDI008R

## COLISTIN SULFATE
Acinetobacter baumannii [1]
  MIC: > 128 µg/mL
Acinetobacter baumannii [2]
  MIC: 1 µg/mL
Acinetobacter baumannii [3]
  MIC: > 128 µg/mL
Acinetobacter baumannii [4]
  MIC: > 128 µg/mL
